Results of unrelated studies side by side (data: NIAID ChemDB).

All rows: whole-cell or culture tests; species: Candida albicans

Lines come from different laboratories, so protocols vary. ECn is the concentration giving n% inhibition of infection, replication or growth. MIC50, MIC90 and the like: level of inhibition, or share of isolates inhibited. Blank or dashed fields: not listed here.

SMILES | measure | read by | strain | value
Clc1ccc(-c2nc3ccccc3n2Cc2nnc(Nc3cccc(Br)c3)s2)cc1 | MIC |  |  | 25 µg/mL
N=C(N)Sc1c2ccccc2nc2cccc([N+](=O)[O-])c12 | MIC |  | CNCM 1180-79 | 500 µg/mL
COc1ccccc1C1SC(C)C(=O)N1C(Cc1ccccc1)C(=O)O | EC50 | broth dilution |  | 84.14 µM
O=C1CCCC2=C1C(c1ccc(F)cc1)N1C(=N2)Sc2c1nn[nH]c2=O | MIC |  | Robin Berkho (AUCC-1720) | >40 µg/mL
CCC(C)CC(C)CCCCCCCCC(=O)N[C@H]1C[C@@H](O)[C@H](NCCN)NC(=O)[C@@H]2[C@@H](O)CCN2C(=O)[C@H]([C@H](O)CCN)NC(=O)[C@H]([C@H](O)[C@@H](O)c2ccc(O)cc2)NC(=O)[C@@H]2C[C@@H](O)CN2C(=O)[C@H]([C@@H](C)O)NC1=O | MIC |  | 3 isolates | 0.27 µg/mL
CC(C)=CCC/C(C)=C/CC/C(C)=C/Cc1cccc(C(=O)O)c1O | MIC |  | ATCC 10231 | >12.5 µg/mL
Nc1c2c(nc(=S)n1Cc1ccccc1)N1C(=NC3=C(C(=O)CCC3)C1c1ccc(F)cc1)S2 | MIC |  | Robin Berkho (AUCC-1720) | >40 µg/mL
C[C@H]1[C@H](O)[C@@H](C)/C=C/C=C/C=C/C=C/C=C/C=C/C=C/[C@H](O[C@@H]2O[C@H](C)[C@@H](O)[C@H](N)[C@@H]2O)C[C@@H]2O[C@](O)(C[C@@H](O)C[C@@H](O)CC[C@H](O)[C@@H](O)C[C@@H](O)CC(=O)O[C@H]1C)C[C@H](O)[C@H]2C(=O)O | MIC | absorbance | Clinical isolate | 0.5 µg/mL
O=C(Nc1nc2ccc(NC(=O)[C@@H]3CCC[C@H](NCc4ccc5ccccc5c4)C3)cc2s1)C1CCCC1 | MIC |  | ATCC 90028 | 0.78 µM
CCCCCCCn1cc[n+](COCCCOC[n+]2ccn(CCCCCCC)c2)c1 | MIC100 | agar diffusion | ATCC 90028 | 158 µM
O=C1CSC(c2ccco2)N1c1ncc(-c2cc3ccccc3oc2=O)o1 | MIC | broth dilution | ATCC 10231 | 32 µg/mL
O=C(O)C(Cc1ccccc1)N1C(=O)CCSC1c1ccccc1 | EC50 | broth dilution |  | 55.36 µM
CCCCCCCCCCCCC(OC)C(=O)O | MIC |  | ATCC 14053 | 110 µM
NCCc1ccc([N+](=O)[O-])c2c(=O)c3ccccc3[nH]c12 | MFC |  | CNCM 1180-79 | >500 µg/mL
CCCCCCCCn1cc[n+](COCCCCCOC[n+]2ccn(CCCCCCCC)c2)c1 | MIC100 | agar diffusion | ATCC 90028 | 71 µM
CN(CCCC#CC(C)(C)C)c1cccc2c1CCC(=O)N2 | MIC |  | Clinical isolate 13 | 31.25 µg/mL
O=C(Nc1ccc(Cl)c(Cl)c1)c1ccccc1O | MIC |  | ATCC 44859 | >125 µM
O=C1CSC(c2cccc([N+](=O)[O-])c2)N1c1ncc(-c2cc3ccccc3oc2=O)o1 | MIC | broth dilution | ATCC 10231 | 20 µg/mL
CCCC(C)C(OC(=O)/C=C/c1ccccc1)C(C)C(O)C/C=C/C=C\C(N)=O | MIC |  | ATCC 10231 | 25 µg/mL
CCOc1cc2c(cc1F)n([O-])c(C)c(Cl)[n+]2=O | MIC |  | Clinical isolate 8 | 15.6 µg/mL
C[C@H]1[C@H](O)[C@@H](C)/C=C/C=C/C=C/C=C/C=C/C=C/C=C/[C@H](O[C@@H]2O[C@H](C)[C@@H](O)[C@H](N)[C@@H]2O)C[C@@H]2O[C@](O)(C[C@@H](O)C[C@@H](O)CC[C@H](O)[C@@H](O)C[C@@H](O)CC(=O)O[C@H]1C)C[C@H](O)[C@H]2C(=O)O | MIC | broth dilution | ATCC 90028 | 0.25 µg/mL
Clc1ccc(Nc2nnc(Cn3c(-c4ccc(Cl)cc4)nc4ccccc43)s2)cc1 | MIC |  |  | 25 µg/mL
O=C(CN1C(=O)S/C(=C\c2ccc(-c3cc(=O)c4ccccc4o3)cc2)C1=O)c1ccc(Cl)cc1 | MIC |  |  | 12.5 µg/mL
O=C(Nc1cccc([N+](=O)[O-])c1)c1ncccc1O | MIC |  | ATCC 44859 | >250 µM
CNC1(NC)C=CC(C2SCC(=O)N2c2ncc(-c3cc4ccccc4oc3=O)o2)=CC1 | MIC | broth dilution | ATCC 10231 | 20 µg/mL
O=C1N(c2ccccc2)C(c2ccccc2)C1(Cl)Cl | MIC |  | ATCC 10231 | 125 µg/mL
CC1C=C(c2cccc(Br)c2)C(=O)O1 | MIC |  | ATCC 44859 | >125 µM
O=C1N(c2ccccc2)C(c2ccc(Cl)cc2)C1(Cl)Cl | MIC |  | ATCC 10231 | 125 µg/mL
CCC(C)CC(C)CCCCCCCCC(=O)N[C@H]1C[C@@H](O)[C@H](NCCN)NC(=O)[C@@H]2[C@@H](O)CCN2C(=O)[C@H]([C@H](O)CCN)NC(=O)[C@H]([C@H](O)[C@@H](O)c2ccc(O)cc2)NC(=O)[C@@H]2C[C@@H](O)CN2C(=O)[C@H]([C@@H](C)O)NC1=O | MIC90 | broth dilution |  | 2 µg/mL
CC[C@@H]([C@H](C)O)n1ncn(-c2ccc(N3CCN(c4ccc(OC[C@@H]5CO[C@@](Cn6cncn6)(c6ccc(F)cc6F)C5)cc4)CC3)cc2)c1=O | MIC50 | broth dilution / turbidity | SC5314 | 0.03 µg/mL
CCSc1c2ccccc2nc2cccc([N+](=O)[O-])c12 | MIC |  | CNCM 1180-79 | 500 µg/mL
COc1cccc(C(=O)Oc2c(OC)cc3ccnc4c3c2N(C)C=C4)c1 | EC50 |  |  | >15 µg/mL
CNC1C(C)OC(O[C@H]2c3cc(C)c(C(=O)N[C@H](C)C(=O)N[C@H](C)C(=O)O)c(O)c3-c3c(cc4c(c3O)C(=O)c3cc(OC)cc(O)c3C4=O)[C@@H]2O)C(O)C1OC1OCC(O)C(O)C1O | MIC |  | A9540 | >100 µg/mL
O=S1c2ccccc2SN1C1CC1 | MIC |  | 10231 | 25 µg/mL
Clc1ccccc1C(c1ccccc1)(c1ccccc1)n1ccnc1 | MIC | broth dilution | IFO 0583 | 2 µg/mL
Cc1ccc(NC(=O)c2ncccc2O)cc1 | MIC |  | ATCC 44859 | 125 µM
CCCCc1ccc(C(=O)Oc2c(OC)cc3ccnc4c3c2N(C)C=C4)cc1 | MIC |  |  | 5 µg/mL
CN(C)CCCSc1c2ccccc2nc2cccc([N+](=O)[O-])c12 | MFC |  | CNCM 1180-79 | >500 µg/mL
CCCCCCCCCCCCCCCCn1cc[n+](COCCCOC[n+]2ccn(CCCCCCCCCCCCCCCC)c2)c1 | MIC100 | agar diffusion | ATCC 90028 | 106 µM
Cc1ccccc1Nc1nnc(Cn2c(-c3ccc(Cl)cc3)nc3ccccc32)s1 | MIC |  |  | 12.5 µg/mL
CCCCCC1C=C(c2ccc(Cl)c(Cl)c2)C(=O)O1 | MIC |  | ATCC 44859 | 125 µM
COc1ccc(C2N(c3ccccc3)C(=O)C2(Cl)Cl)cc1 | MIC |  | ATCC 10231 | 125 µg/mL
Cc1ccc(NC(=O)c2ncccc2S)cc1 | MIC |  | ATCC 44859 | 15.63 µM
COc1cc2ccnc3c2c(c1OC(=O)N1CCCC1)N(C)C=C3 | EC50 |  |  | >15 µg/mL
CCC1C=C(c2ccc(C)cc2)C(=O)O1 | MIC |  | ATCC 44859 | >125 µM
CCOC(=O)[C@@H](C)NC(=O)c1c(C)cc2c(c1O)-c1c(cc3c(c1O)C(=O)c1cc(OC)cc(O)c1C3=O)[C@H](O)[C@H]2O[C@@H]1O[C@H](C)[C@H](NC)[C@H](O[C@@H]2OC[C@@H](O)[C@H](O)[C@H]2O)[C@H]1O | MIC |  | A9540 | >100 µg/mL
CCC(C)/C=C(C)/C=C/C=C(\C)CC(C)CC(C)CC(/C=C(C)/C=C/C(O)C(C)(C)c1cc(O)c([C@@H]2O[C@H](CO)C[C@H](O)[C@H]2O)c(=O)o1)CO | MIC |  | M9001 | >100 µg/mL
O=C(Nc1ccc(Cl)cc1)c1ncccc1O | MIC |  | ATCC 44859 | >125 µM
O=C(O)C(Cc1ccccc1)N1C(=O)CSC1c1ccc(Cl)cc1 | EC50 | broth dilution |  | 80.64 µM
Clc1ccc(/C(Cn2ccnc2)=N/Nc2c(Cl)cccc2Cl)s1 | MIC |  | B | 6.2 µg/mL
CCCCCCCC/C=C/CCCCCCCCC(=O)Oc1c(OC)cc2ccnc3c2c1N(C)C=C3 | EC50 |  |  | >15 µg/mL
CC(=O)NC1=C(C#N)SC2=NC3=C(C(=O)CCC3)C(c3ccc(F)cc3)N21 | MIC |  | Robin Berkho (AUCC-1720) | >40 µg/mL
CNC1C(C)OC(O[C@H]2c3cc(C)c(C(=O)N[C@H](C)C(=O)NCC(=O)O)c(O)c3-c3c(cc4c(c3O)C(=O)c3cc(OC)cc(O)c3C4=O)[C@@H]2O)C(O)C1OC1OCC(O)C(O)C1O | MIC |  | A9540 | >50 µg/mL
CCc1ccc(C(=O)Oc2c(OC)cc3ccnc4c3c2N(C)C=C4)cc1 | MIC |  |  | 20 µg/mL
COc1ccccc1C1SCC(=O)N1C(C)C(=O)O | EC50 | broth dilution |  | 79.61 µM
COc1cc2ccnc3c2c(c1O)N(C)C=C3 | EC50 |  |  | >15 µg/mL
COC(=O)/C=C/C(=O)CC[C@H](N)C(N)=O.Cl | MIC |  | ATCC 10231 | 4 µg/mL
COc1cc2ccnc3c2c(c1OC(=O)c1ccc(F)cc1)N(C)C=C3 | EC50 |  |  | >15 µg/mL
CCCC1=CC2=C(CO1)C(=O)[C@](C)(O)[C@H](OC(=O)c1c(C)cc(O)c(O)c1OC)C2 | MIC | broth dilution |  | >256 µg/mL
Cc1ccc(C2N(c3ccccc3)C(=O)C2(Cl)Cl)cc1 | MIC |  | ATCC 10231 | 125 µg/mL
COc1ccccc1C1SCC(=O)N1C(Cc1ccccc1)C(=O)O | EC50 | broth dilution |  | 79.55 µM
COc1cc2ccnc3c2c(c1OC(=O)c1cc(F)ccc1F)N(C)C=C3 | EC50 |  |  | >15 µg/mL
O=C1CCCC2=C1C(c1ccc(F)cc1)N1C(c3ccccc3)=CSC1=N2 | MIC |  | Robin Berkho (AUCC-1720) | >40 µg/mL
Fc1ccc(Nc2nnc(Cn3c(-c4ccc(Cl)cc4)nc4ccccc43)s2)cc1 | MIC |  |  | 50 µg/mL
C=CCc1ccc(O)c(OC)c1 | MIC90 | turbidity | 3036 | 495 µg/mL
COc1ccc(C2N(c3ccc(Cl)cc3)C(=O)C2(Cl)Cl)cc1 | MIC |  | ATCC 10231 | 125 µg/mL
O=C(CN1C(=O)S/C(=C\c2ccc(-c3cc(=O)c4ccccc4o3)cc2)C1=O)c1ccc([N+](=O)[O-])cc1 | MIC |  |  | 12.5 µg/mL
CCCC1=CC2=C(CO1)C(=O)[C@](C)(OC(=O)c1c(C)cc(O)cc1OC)[C@H](O)C2 | MIC | broth dilution |  | >256 µg/mL
C[C@H]1[C@H](O)[C@@H](C)/C=C/C=C/C=C/C=C/C=C/C=C/C=C/[C@H](O[C@@H]2O[C@H](C)[C@@H](O)[C@H](N)[C@@H]2O)C[C@@H]2O[C@](O)(C[C@@H](O)C[C@@H](O)CC[C@H](O)[C@@H](O)C[C@@H](O)CC(=O)O[C@H]1C)C[C@H](O)[C@H]2C(=O)O | MIC |  | ATCC 64548 | 0.5 µg/mL
O=C1CSC(c2ccc([N+](=O)[O-])cc2)N1c1ncc(-c2cc3ccccc3oc2=O)o1 | MIC | broth dilution | ATCC 10231 | 16 µg/mL
CCCCCCCCCCCCn1cc[n+](COCCCOC[n+]2ccn(CCCCCCCCCCCC)c2)c1 | MIC100 | agar diffusion | ATCC 90028 | 8 µM
C/C=C/C1=CC2=C(CO1)C(=O)[C@](C)(OC(=O)c1c(C)cc(O)c(O)c1OC)[C@H](O)C2 | MIC | broth dilution |  | >256 µg/mL
CNC1C(C)OC(O[C@H]2c3cc(C)c(C(=O)N[C@H](C)C(=O)OCOC(=O)C(C)(C)C)c(O)c3-c3c(cc4c(c3O)C(=O)c3cc(OC)cc(O)c3C4=O)[C@@H]2O)C(O)C1OC1OCC(O)C(O)C1O | MIC |  | A9540 | >100 µg/mL
O=C1CSC(c2ccc(Cl)cc2)N1c1ncc(-c2cc3ccccc3oc2=O)o1 | MIC | broth dilution | ATCC 10231 | 36 µg/mL
O=[n+]1c(Sc2ccccc2)c(CBr)n([O-])c2ccccc21 | MIC |  | Clinical isolate 12 | 31.25 µg/mL
O=C1CCCC2=C1C(c1ccc(F)cc1)N=C(SCC(=O)c1ccccc1)N2 | MIC |  | Robin Berkho (AUCC-1720) | >40 µg/mL

Again, the opening 8 rows:

SMILES | measure | read by | strain | value
Clc1ccc(-c2nc3ccccc3n2Cc2nnc(Nc3cccc(Br)c3)s2)cc1 | MIC |  |  | 25 µg/mL
N=C(N)Sc1c2ccccc2nc2cccc([N+](=O)[O-])c12 | MIC |  | CNCM 1180-79 | 500 µg/mL
COc1ccccc1C1SC(C)C(=O)N1C(Cc1ccccc1)C(=O)O | EC50 | broth dilution |  | 84.14 µM
O=C1CCCC2=C1C(c1ccc(F)cc1)N1C(=N2)Sc2c1nn[nH]c2=O | MIC |  | Robin Berkho (AUCC-1720) | >40 µg/mL
CCC(C)CC(C)CCCCCCCCC(=O)N[C@H]1C[C@@H](O)[C@H](NCCN)NC(=O)[C@@H]2[C@@H](O)CCN2C(=O)[C@H]([C@H](O)CCN)NC(=O)[C@H]([C@H](O)[C@@H](O)c2ccc(O)cc2)NC(=O)[C@@H]2C[C@@H](O)CN2C(=O)[C@H]([C@@H](C)O)NC1=O | MIC |  | 3 isolates | 0.27 µg/mL
CC(C)=CCC/C(C)=C/CC/C(C)=C/Cc1cccc(C(=O)O)c1O | MIC |  | ATCC 10231 | >12.5 µg/mL
Nc1c2c(nc(=S)n1Cc1ccccc1)N1C(=NC3=C(C(=O)CCC3)C1c1ccc(F)cc1)S2 | MIC |  | Robin Berkho (AUCC-1720) | >40 µg/mL
C[C@H]1[C@H](O)[C@@H](C)/C=C/C=C/C=C/C=C/C=C/C=C/C=C/[C@H](O[C@@H]2O[C@H](C)[C@@H](O)[C@H](N)[C@@H]2O)C[C@@H]2O[C@](O)(C[C@@H](O)C[C@@H](O)CC[C@H](O)[C@@H](O)C[C@@H](O)CC(=O)O[C@H]1C)C[C@H](O)[C@H]2C(=O)O | MIC | absorbance | Clinical isolate | 0.5 µg/mL